Measured values from several laboratories, pooled; numbers as filed in NIAID ChemDB.

Common to all: target-level tests; species: HIV-1; protein: Reverse transcriptase; read by: nucleotide incorporation / radiometric; read-out: IC50

An empty or dashed field is not shown.

structure | strain | mutations | result
CCN1c2ncc(CCOc3cccc4c3CN(C)C(=O)N4C)cc2C(=O)Nc2c(C)ccnc21 | IIIB | RT-K103N Y181C | >0.1 µM
Nc1ccn([C@H]2CC[C@@H](COP(=O)(O)OP(=O)(O)OP(=O)(O)O)O2)c(=O)n1 |  | RT-A62V V75I F77L F116Y Q151M | 5 µM
CCN1c2ncc(CCOc3ccc(CCC(=O)O)c4c3CCCC4)cc2C(=O)N(C)c2ccc(Cl)nc21 |  | RT-K103N Y181C | 0.1–1 µM
Cc1ccc(-n2c(C)nnc2SCC(=O)Nc2ccc(S(N)(=O)=O)cc2Cl)c2c1CCCC2 |  | RT-Y188L | >0.1 µM
CCN1c2ncc(CCOc3ccc(CC(=O)O)c4ccccc34)cc2C(=O)N(C)c2cccnc21 |  | RT-K103N Y181C | 0.1–1 µM
CCN1c2ncc(CCOc3ccc4on(C(C)(C)C)c(=O)c4c3)cc2C(=O)Nc2c(C)cc(F)nc21 | IIIB |  | 0.05–0.1 µM
Nc1ncnc2c1ncn2[C@H]1CC[C@@H](COP(=O)(O)OP(=O)(O)OP(=O)(O)O)O1 |  | RT-V75I | 4.6 µM
CCN1c2ncc(CCOc3ccc(/C=C(\C)C(=O)O)c4ccccc34)cc2C(=O)N(C)c2ccc(F)nc21 |  | RT-K103N Y181C | 0.1–1 µM
CCc1ccc(-n2c(SCC(=O)Nc3ccc(C(=O)O)cc3Cl)nnc2C(F)F)c2ccccc12 |  |  | <0.05 µM
Cc1ccnc2c1NC(=O)c1cc(CCOc3cccc4c3CNC(=O)N4)cnc1N2C1CC1 | IIIB | RT-K103N Y181C | >0.1 µM
O=C(O)CNC(=O)c1ccc(NC(=O)CSc2nnc(Br)n2-c2ccc(C3CC3)c3ccccc23)c(Cl)c1 |  | RT-Y181C | <0.05 µM
CCN1c2ncc(CCOc3ccc4on(C)c(=O)c4c3)cc2C(=O)Nc2c(C)cc(F)nc21 | IIIB |  | <0.05 µM
COc1ccc2c(C3CC3)ccc(-n3c(Br)nnc3SCC(=O)Nc3ccc(S(=O)(=O)O)cc3Cl)c2c1 |  |  | <0.05 µM
CCN1c2ncc(CCOc3cccc4c3CNC(=O)C4)cc2C(=O)N(C)c2cccnc21 | IIIB |  | <0.05 µM
CCOC(=O)C(C)NS(=O)(=O)c1ccc(NC(=O)CSc2nnc(C(F)F)n2-c2ccc(C)c3c2CCCC3)c(Cl)c1 |  |  | <0.05 µM
CCN1C(=O)c2cc(CCOc3cccc4c3CNC(=O)N4)cnc2N(CC)c2ncccc21 | IIIB | RT-K103N Y181C | >0.1 µM
CCN1c2ncc(CCOc3ccc(/C=C/C(=O)O)c4ccccc34)cc2C(=O)Nc2c(C)ccnc21 | WT |  | <0.1 µM
CCc1ccc(-n2c(Br)nnc2SCC(=O)Nc2ccc(C(=O)N[C@@H](CO)C(=O)OC)cc2Cl)c2ccccc12 |  |  | <0.05 µM

Repeating the first 2 entries:

structure,strain,mutations,result
CCN1c2ncc(CCOc3cccc4c3CN(C)C(=O)N4C)cc2C(=O)Nc2c(C)ccnc21,IIIB,RT-K103N Y181C,>0.1 µM
Nc1ccn([C@H]2CC[C@@H](COP(=O)(O)OP(=O)(O)OP(=O)(O)O)O2)c(=O)n1,,RT-A62V V75I F77L F116Y Q151M,5 µM

Two numbers with a dash give a range or band. ICn: concentration for n% inhibition. Conditions beyond the fields shown may differ between rows.